Pooled drug test results. Numbers come from NIAID ChemDB, via PubChem.

Shared fields: tests in culture; organism: HIV-1

ECn is the concentration giving n% inhibition of infection, replication or growth. Two numbers with a dash give a range or band. An empty or dashed field is not shown. Lines come from different laboratories, so protocols vary.

SMILES	endpoint	strain or isolate	changes	setting	cells	method	value
CCCCO[C@H](C(=O)O)c1c(C)ncc(-c2ccc(OCCOc3ccccc3Cl)cn2)c1N1CCC(C)(C)CC1	EC50	NL4-3	-	-	MT-2	luminescence	0.0079 µM
COc1cc(/C=N/n2sc3ccc(C)cc3c2=O)ccc1O	EC50	-	K103N + Y181C	-	MT-4	MTT	>16 µM
N#Cc1cc(Cl)cc(Oc2cc(Cl)cc(OCC(=O)Nc3ccc4nc[nH]c4c3)c2)c1	EC50	-	-	-	MT-4	p24	<20 µM
COc1ccc(NC(=S)c2ccsc2C)cc1OCC=C(Cl)Cl	EC50	IIIB	-	-	CEM	syncytia	0.005 µg/mL
Nc1ccc(C2NC(=O)NC(C3CC3)=C2C(=O)OCC2CCCCC2)cc1	EC50	-	-	-	CEM	p24 / ELISA	>5 µM
CC(C)CN(C[C@@H](O)[C@H](Cc1ccccc1)NC(=O)O[C@H]1CO[C@H]2OCC[C@H]21)S(=O)(=O)c1ccc2nc(NC3CCN(C4CCCC4)CC3)sc2c1	EC50	T13717	V32I I50V L76V G73S V82I	-	MT-4	reporter gene	68 nM
COc1ccc(NC(=O)c2ccoc2C)cc1OCC=C(Cl)Cl	EC50	TIBO R82913-resistant (RT K103N)	RT-K103N	-	CEM	syncytia	10 µg/mL
Nc1nc(NC2CC2)c2ncn([C@H]3C=C[C@@H](CO)C3)c2n1	EC50	MSO Clinical isolate	-	-	PBMC	p24	<0.25 µM
N#Cc1cc(Cl)cc(Oc2cc(OCc3[nH]nc4nc(N5CCNCC5)ccc34)ccc2Cl)c1	EC50	-	-	-	MT-4	p24	<20 µM
Cc1ncc(-c2ccc(OCCC3CCCC3)cn2)c(N2CCC(C)(C)CC2)c1[C@H](OC(C)(C)C)C(=O)O	EC50	NL4-3	-	-	MT-2	luminescence	0.0009 µM
Cc1ccc(C)n1-c1ccc(C(=O)O)c(O)c1	EC50	92US657 R5 CLADE B	-	-	PBMC/5.25M7	luciferase / cell fusion	28.19 µM
COc1c(C(=O)/C=C(/C)Nc2ccccc2)c(O)c(S(=O)(=O)OC2CCCCC2)c2occc12	EC50	RF	-	-	CEM-SS	cytopathic effect / MTS	0.000074 µM
O=C(NCc1ccc(F)cc1)c1ncc2cccnc2c1O	EC50	-	-	10% FBS	MT-4	p24	<1.25 µM
COc1c(C(=O)/C=C(/C)Nc2ccccc2)c(O)c(S(=O)(=O)OC2CCCC2)c2occc12	EC50	RF	-	-	CEM-SS	cytopathic effect / MTS	0.000066 µM
COc1cc(/C=N/n2sc3ccccc3c2=O)ccc1O	EC50	-	Y181C	-	MT-4	MTT	>15 µM
Cc1ccccc1C(C)c1c(C)c(=O)[nH]c(=O)n1COCc1ccccc1	EC50	IIIB	L100I	-	MT-4	MTT	231 µM
O=c1c2ccccc2sn1/N=C/c1ccccc1O	EC50	-	-	-	MT-4	MTT	>18 µM
CCOCn1c(Cc2cccc3ccccc23)c(CC)c(=O)[nH]c1=O	EC50	LAV	-	-	MT-4	-	0.041 µM
CCC1=C(C(=O)OCC2CCCCC2)[C@H](c2cccc(OC(=O)OC(C)(C)C)c2)NC(=O)N1	EC50	-	-	-	CEM	p24 / ELISA	≤1 µM
COc1c(C(=O)/C=C(/C)Nc2ccc(F)cc2)c(O)c(S(=O)(=O)Oc2ccc(F)cc2)c2occc12	EC50	RF	-	-	CEM-SS	cytopathic effect / MTS	0.000059 µM
O=c1c2ccccc2sn1/N=C/c1ccc(O)cc1	EC50	-	K103N + Y181C	-	MT-4	MTT	>18 µM
Nc1ccn([C@H]2CC[C@@H](CO)O2)c(=O)n1	EC50	IIIB	-	-	MT-4	cytopathic effect / XTT	0.013 µg/mL
O=C1NC(=O)c2cc([N+](=O)[O-])c(Sc3c(Cl)cccc3Cl)cc21	EC50	-	-	pseudotyped	HeLa	single cycle / luminescence	170 µM
C=CCOCn1c(Cc2cc(Cl)cc(Cl)c2)c(CC)c(=O)[nH]c1=O	EC50	NNRTI-resistant (RT K103N Y181C) A17	RT-K103N Y181C	-	MT-4	cytopathic effect / MTT	3 µM
CC(C)c1c(Cc2cccc3ccccc23)n(COCc2ccccc2)c(=O)[nH]c1=O	EC50	LAV	-	-	MT-4	-	0.021 µM
Cc1cc(C)cc(Cc2c(I)c(=O)[nH]c(=O)n2COCc2ccccc2)c1	EC50	SF33	Y188L	-	TZM-bl	p24 / ELISA	0.009 µM
C[Si](C)(C)C#CC1=C(C(=O)OCC2CCCCC2)C(c2cccc(O)c2)NC(=O)N1	EC50	-	-	-	CEM	p24 / ELISA	>1 µM
COc1c(-c2cc(C)on2)c(O)c(S(=O)(=O)OC2CCCCC2)c2occc12	EC50	RF	-	-	CEM-SS	cytopathic effect / MTS	0.000057 µM
NC(=O)c1ccccc1NC(=O)CSc1nnnn1-c1cccc2ccccc12	EC95	-	-	-	MT-4	p24	<10 µM
COc1c(-c2cc(C)n(-c3ccccc3)n2)c(O)c(S(=O)(=O)OC2CCCC2)c2occc12	EC50	RF	-	-	CEM-SS	cytopathic effect / MTS	0.00004 µM
CCc1c(Cc2cc(Cl)cc(Cl)c2)n(COC/C(C)=C/c2ccccc2)c(=O)[nH]c1=O	EC50	NNRTI-resistant (RT K103N Y181C) A17	RT-K103N Y181C	-	MT-4	cytopathic effect / MTT	>10 µM
O=C1Nc2ccc(Cl)cc2[C@@](C#CC2CC2)(C(F)(F)F)N1	EC90	-	RT-G190S	-	-	-	~0.055 µM
N#Cc1cc(Cl)cc(Oc2cc(Cl)cc(OCc3[nH]nc4ccccc34)c2)c1	EC50	-	-	-	MT-4	p24	<20 µM
OCCC#Cc1nc(-c2ccc(F)cc2)c(-c2ccncc2)n1CCCc1ccccc1	EC50	89.6	-	-	Mono Mac 6	p24	1 µM
NS(=O)(=O)c1ccc(NC(=O)CNc2cccc(Oc3ccccc3)c2)c(Cl)c1	EC50	-	-	-	MT-4	p24	<20 µM
Clc1cc(CN2CCCNCCNCCCNCC2)cc(Cl)n1	EC50	NL4-3 CXCL12-resistant X4	-	-	MT-4	p24	6.1 µM
Nc1cccc(C2NC(=O)NC(C3CC3)=C2C(=O)OCC2CCCCC2)c1	EC50	-	-	-	CEM	p24 / ELISA	1–5 µM
COc1cccc2[nH]cc(C(=O)C(=O)N3CCN(C(=O)c4ccccc4)C[C@H]3C)c12	EC50	NL4-3	-	-	MT-2/CXCR4	virus yield	0.00294 µM
Cc1ncc(-c2ccc(OCCCOC(C)C)cn2)c(N2CCC(C)(C)CC2)c1[C@H](OC(C)(C)C)C(=O)O	EC50	NL4-3	-	-	MT-2	luminescence	0.0016 µM
O=C1Nc2ccc(F)c(F)c2[C@@](/C=C/C2CC2)(C(F)(F)F)N1	EC90	-	RT-K103N V108I	-	-	-	~0.22 µM
COc1c(-c2cc(C)n(C)n2)c(O)c(S(=O)(=O)Oc2ccc([N+](=O)[O-])cc2)c2occc12	EC50	RF	-	-	CEM-SS	cytopathic effect / MTS	0.000034 µM
O=c1c2ccccc2sn1/N=C/c1cccc(O)c1	EC50	-	EFV-resistant (K103 V179D P225H)	-	MT-4	MTT	>15 µM
COc1ccnc2[nH]cc(C(=O)C(=O)N3CCN(C(=O)c4ccccc4)C[C@H]3C)c12	EC50	NL4-3	-	-	MT-2	RT activity	0.067 µM
C=C(C)[C@@H]1CC[C@]2(C(=O)NCCCCCCCC(=O)N[C@@H](CC(C)C)[C@@H](O)CC(=O)O)CC[C@]3(C)[C@H](CC[C@@H]4[C@@]5(C)CC[C@H](O)C(C)(C)[C@@H]5CC[C@]43C)[C@@H]12	EC50	IIIB	-	-	U-937	p24 / RT activity	0.08 µM
Cc1c(C(C)(O)c2ccccc2F)n(COCc2ccccc2)c(=O)[nH]c1=O	EC50	IIIB	-	-	MT-4	MTT	>185 µM
COc1ccc(/C=N/n2sc3ccc(C)cc3c2=O)cc1	EC50	-	K103N + Y181C	-	MT-4	MTT	>55 µM
CCc1c(Cc2cccc3ccccc23)n(COC)c(=O)[nH]c1=O	EC50	LAV	-	-	MT-4	-	0.213 µM
O=C(c1c(O)cc(O)cc1O)c1c(-c2ccc(O)cc2)oc2cc(O)c3c(c12)O[C@H](c1ccc(O)cc1)CC3	EC50	IIIB	-	-	MOLT-4/HIV-1(IIIB) + MOLT-4	p24	>30 µg/mL
CCC(=O)C1=C(Cc2ccccc2)NC(=O)N[C@H]1c1ccc(O)c(Cl)c1	EC50	-	-	-	CEM	p24 / ELISA	>5 µM
COC(=O)c1sccc1NC(=O)CSc1nnnn1-c1c(C)cc(C)cc1C	EC50	-	-	-	MT-4	p24	<10 µM
CCc1c(Cc2cc(Cl)cc(Cl)c2)n(COC2CCc3ccccc32)c(=O)[nH]c1=O	EC50	IIIB	-	-	MT-4	cytopathic effect / MTT	0.05 µM
Cc1c(Cc2ccc3ccccc3c2)n(COCc2ccccc2)c(=O)[nH]c1=O	EC50	LAV	-	-	MT-4	-	4.066 µM
COc1ccc(NC(=O)C2=C(C)OCCS2)cc1OCC=C(Cl)Cl	EC50	TIBO R82913-resistant (RT K103N)	RT-K103N	-	CEM	syncytia	10 µg/mL
CCOCn1c(Cc2ccc3ccccc3c2)c(C)c(=O)[nH]c1=O	EC50	LAV	-	-	CEM	-	4.412 µM
Cc1ncc(-c2ccc(N(C)CCOc3ccc(F)cc3)cn2)c(N2CCC(C)(C)CC2)c1[C@H](OC(C)(C)C)C(=O)O	EC50	NL4-3	-	-	MT-2	luminescence	0.0016 µM
COc1cccc(C2NC(=O)NC(C)=C2C(=O)OCC2CCCCC2)c1	EC50	-	-	-	CEM	p24 / ELISA	1–5 µM
Cc1cc(C)c(-n2nnnc2SCC(=O)Nc2ccc(F)cc2F)c(C)c1	EC95	-	-	-	MT-4	p24	<10 µM
Cc1ncc(-c2ccc(N(C)CCOc3ccc(Cl)cc3Cl)nc2)c(N2CCC(C)(C)CC2)c1[C@H](OC(C)(C)C)C(=O)O	EC50	NL4-3	-	-	MT-2	luminescence	0.0025 µM
CS(=O)(=O)c1ccc(NC(=O)COc2ccc(Cl)c(Oc3cc(Cl)cc(C#N)c3)c2)c(Cl)c1	EC50	-	-	-	MT-4	p24	<20 µM
COc1c(C(=O)/C=C(/C)Nc2ccc([N+](=O)[O-])cc2)c(O)c(S(=O)(=O)Oc2ccc([N+](=O)[O-])cc2)c2occc12	EC50	IIIB	-	-	MT-4	MTT	0.000039 µM
C=C(C)COCn1c(Cc2cc(Cl)cc(Cl)c2)c(CC)c(=O)[nH]c1=O	EC50	NNRTI-resistant (RT K103N Y181C) A17	RT-K103N Y181C	-	MT-4	cytopathic effect / MTT	>10 µM
O=c1c2ccccc2sn1/N=C/c1cccc(F)c1	EC50	-	K103N + Y181C	-	MT-4	MTT	>15 µM
N#Cc1cc(Cl)cc(Oc2cc(OCc3[nH]nc4ncccc34)cc(F)c2Cl)c1	EC95	-	-	-	MT-4	p24	<20 µM
Cc1ncc(-c2ccc(NCCOc3ccc(Cl)cc3)nc2)c(N2CCC(C)(C)CC2)c1[C@H](OC(C)(C)C)C(=O)O	EC50	NL4-3	-	-	MT-2	luminescence	0.0032 µM
C=C(c1cc(OC)cc(OC)c1)c1c(C)c(=O)[nH]c(=O)n1COCc1ccccc1	EC50	IIIB	L100I	-	MT-4	MTT	8.67 µM
Cc1sccc1C(=O)Nc1ccc(Cl)c(OCC=C(Cl)Cl)c1	EC50	IIIB	-	-	CEM	syncytia	0.09 µg/mL
CCc1c(Cc2ccc3ccccc3c2)n(COC)c(=O)[nH]c1=O	EC50	LAV	-	-	CEM	-	>12.34 µM
Cc1cc(/C=C/C#N)cc(C)c1Oc1ccnc(Nc2ccc(CN3CCN(S(=O)(=O)N(C)C)CC3)cc2)n1	EC50	RES056	-	-	MT-4	MTT	>3.07 µM
C[C@@H]1CCO[C@H]2Cn3cc(C(=O)NCc4ccc(F)cc4F)c(=O)c(O)c3C(=O)N12	EC50	NL4-3	H51Y/R263K	-	CBMC	RT activity	0.0023 µM
CCOCn1c(Cc2ccc3ccccc3c2)c(CC)c(=O)[nH]c1=O	EC50	LAV	-	-	MT-4	-	3.194 µM
COc1ccc(OS(=O)(=O)c2c(O)c(-c3cc(C)on3)c(OC)c3ccoc23)cc1	EC50	RF	-	-	CEM-SS	cytopathic effect / MTS	0.000049 µM
O=C1NC(c2ccccc2)=C(C(=O)OCC2CCCCC2)C(c2cccc(O)c2)N1	EC50	-	-	-	CEM	p24 / ELISA	>5 µM
Cc1ccc(C[C@@H](C)[C@@H](C)Cc2ccc(C)c(C)c2)cc1C	EC50	-	-	-	-	luminescence	26 µM
Cc1cc(OCC(=O)Nc2ccc(S(N)(=O)=O)cc2Cl)cc(Oc2cc(Cl)cc(C#N)c2)c1	EC95	-	-	-	MT-4	p24	<20 µM
O=c1c2ccccc2sn1/N=C/c1ccc2c(c1)OCO2	EC50	-	-	-	MT-4	MTT	>17 µM
Cc1ccc(-c2ccc3c(c2)C=C(C(=O)Nc2ccc(C[N+](C)(C)C4CCOCC4)cc2)CCC3)cc1	EC50	COT1 CLADE C	-	-	PBMC	p24	<1 µM
N#Cc1cc(Cl)cc(Oc2cc(OCC(=O)Nc3ccc(S(N)(=O)=O)cc3Cl)ccc2Cl)c1	EC50	-	-	-	MT-4	p24	<20 µM
Cc1c(C(C)c2cccc3ccccc23)n(COCc2ccccc2)c(=O)[nH]c1=O	EC50	IIIB	-	-	MT-4	MTT	>294 µM
Cc1cc(C)cc(S(=O)(=O)c2c(C(=O)NNCCO)[nH]c3ccc(Cl)cc23)c1	EC90	EFV-resistant (RT K103R V179D P225H)	RT-K103R V179D P225H	-	C8166	p24	0.2 µM
O=c1[nH]sc2ccc(Br)cc12	EC50	-	-	-	-	luminescence	170 µM
COc1c(-c2cc(C)n(-c3ccccc3)n2)c(O)c(S(=O)(=O)OC2CCCCC2)c2occc12	EC50	RF	-	-	CEM-SS	cytopathic effect / MTS	0.000044 µM
COC(=O)c1ccc(NC(=O)CSc2nnnn2-c2c(C)cc(C)cc2C)c(C)c1	EC95	-	-	-	MT-4	p24	<10 µM
C/C(Cl)=C/COc1cc(NC(=O)c2ccoc2C)ccc1Cl	EC50	TIBO R82150-resistant (RT L100I)	RT-L100I	-	CEM	syncytia	0.7 µg/mL